Mtb glucose medium: 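Growth of Mycobacterium tuberculosis over 3 days (7H9 medium with glucose and tyloxapol); the read-out is not stated. Tested at 500 µM. The record gives no direction; compounds that gave an IC50 in retests scored well above the rest, so higher reads as more growth inhibition. About 18,000 compounds were tested under these conditions; 7.9% (about 1,400) showed 50% or more at least once.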
Mtb cholesterol medium: 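Whole-cell growth test on Mycobacterium tuberculosis, read after 4 days in a medium based on cholesterol and the lipid DPPC; the read-out is not stated. Tested at 500 µM. Higher reads as more growth inhibition (inferred: compounds with an IC50 in retests scored well above the rest). Of about 18,000 compounds tested this way, about 900 (5%) reached 50% or more in at least one test.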

The filed quantity is “Percent Effect” (%).
The record does not define 0% and 100%; most values in the screen are far below 50% and negative numbers occur (in some assays of this library far below -100).
The entries come from a sample that favours strong results.
A dash means the value is not listed here; it may have been measured.

| Compound | Mtb glucose medium | Mtb cholesterol medium |
|---|---|---|
| `NCCNS(=O)(=O)c1ccc(Br)c(F)c1` | 41.57 | - |
| `CCN(CC)CC(=O)NCCS(=O)(=O)C(C)(C)C` | - | 18.41 |
| `NC(=O)Cc1cccc(O)c1` | - | 7.474 |
| `CC(C)Nc1cccc(C(=O)NC(C)CO)c1` (stereo not drawn) | - | -8.718 |
| `CCC(=O)N1CCN(Cc2ccc(Br)cn2)CC1` | 30.03 | - |
| `Cc1ccc(-c2noc(C(C)N)n2)cc1F` (stereo not drawn) | 69.02 | 71.68 |
| `OCCN1CCN(Cc2nnnn2C2CC2)CC1` | 2.866 | - |
| `Cn1ccnc1CSCCO` | - | -5.015 |
| `CS(=O)(=O)N1CCN(C(=O)Nc2cccnc2)CC1` | - | -24.01 |
| `Cc1nc(NC(=O)NCCC(C)O)sc1C` (stereo not drawn) | 27.52 | - |
| `COC(CN)C1CCCC1` (stereo not drawn) | -2.901 | - |
| `Cc1cccc(N(C)CC(O)CN2CCOCC2)n1` (stereo not drawn) | - | 1.406 |
| `CN1CCN(C(=O)CCSc2ccccc2)CC1` | 14.02 | - |
| `CCC(C(=O)NCc1cn2c(n1)SCC2)n1cccn1` (stereo not drawn) | 17.19 | - |
| `Cc1c[nH]c2ccccc2c1=N` | - | -41.67 |
| `O=C(CO)N1C[C@@H](CN2CCCCCC2)[C@@H](CO)C1` | -48.51 | - |
| `CN(CC(N)=O)Cc1csc(Br)c1` | - | 13.65 |
| `CS(=O)(=O)NCCCc1cnc2ccccc2c1` | 37.45 | - |
| `CC(c1nc(-c2ccccn2)no1)N1CCSCC1` (stereo not drawn) | 54.63 | 59.17 |
| `Cc1cccc(NCCNC(=O)c2ccccc2)n1` | 56.09 | 15.54 |
| `Nc1cnccc1N1CCCC1` | - | -5.913 |
| `O=C(Nc1ncccn1)C1(c2ccccc2)CC1` | 4.403 | - |
| `O=C(NCc1cc[nH]n1)NCC(O)c1cccc(Cl)c1` (stereo not drawn) | - | 3.154 |
| `c1ccc(Oc2cccc(NCc3csnn3)c2)nc1` | 64.56 | - |
| `OC1CCC(Nc2ncccc2Cl)CC1` (stereo not drawn) | 38.37 | - |
| `Cc1cc(CO)nn1C` | - | 3.164 |
| `CCOc1ccc(CNC(=O)CCn2cccn2)cc1` | 57.28 | - |
| `NCC(=O)Cc1ccc(Br)cc1` | 26.18 | - |
| `CCCN1CCC(NC(=O)C(C)C)CC1` | 4.994 | - |
| `CCc1ccc(C(=O)Nc2ccncc2)o1` | - | -0.2183 |
| `CCCn1ccnc1-c1nc2c([nH]1)CCCNC2=O` | -11.23 | - |
| `CN(C)c1ccc(Br)c(S(=O)(=O)NC2CCNC2)c1` (stereo not drawn) | 69.33 | - |
| `COc1cccc(CN2CCC3(CC2)OCC(C)O3)c1` (stereo not drawn) | 59.6 | 57.39 |
| `N#CC1(NC(=O)CN2CCC(CO)CC2)CCCCC1` | 12.38 | - |
| `CS(=O)(=O)Cc1ccccc1CN` | 0.9702 | - |
| `NC(CO)c1ccc(Cl)cc1C(F)(F)F` (stereo not drawn) | - | 15.5 |
| `COC(=O)C(C)S(N)(=O)=O` (stereo not drawn) | -9.137 | - |
| `Cc1cc(C)n(CC(=O)N2CCOCC2C)n1` (stereo not drawn) | -0.3622 | - |
| `CCOC(CN)CN` | -18.38 | - |
| `CC(C)(C)OC(=O)NCC(C)(N)C1CC1` (stereo not drawn) | - | 16.25 |
| `CN(C)[C@@H]1CN(C(=O)c2ccncc2F)C[C@H]1CO` | -4.483 | - |
| `CC(=O)NC(C)C(=O)Nc1ccc2c(c1)OCCO2` (stereo not drawn) | - | 1.362 |
| `CC1(O)CCN(C(=O)NC(C)(C)C)C1` (stereo not drawn) | 6.286 | - |
| `CNS(=O)(=O)c1csc(C(=O)N(CC(F)F)C2CC2)c1` | - | 9.916 |
| `COC(=O)CCN1CCN(CC2CCCC2)C(=O)C1` | 40.79 | - |
| `C1COCC(C2CC2)N1` (stereo not drawn) | - | -16.24 |
| `CN(CC1CC1)C(=O)c1cccnc1-n1cccn1` | 5.965 | - |
| `Nc1ncnc(N2CCC(CO)CC2)c1Cl` | 4.005 | - |
| `Cn1cc(CCCNC(=O)COc2cccnc2)cn1` | - | 9.683 |
| `N#Cc1cc(F)ccc1NC(=O)N1CCC(O)CC1` | - | 2.13 |
| `COc1ncccc1C(=O)NCCc1cncn1C` | 8.792 | 9.841 |
| `NCc1cnc2sccn12` | - | 4.75 |
| `CN1CCN(C(=O)C2CCC(CN)CC2)CC1` (stereo not drawn) | - | -9.667 |
| `CCN1CCN(C(=O)C2CCCOC2)c2ccccc21` (stereo not drawn) | 81.85 | -3.203 |
| `Cc1noc(CN2C[C@H](C(C)C)[C@@H](N)C2)n1` | -0.4656 | - |
| `Cc1nccn1CCNC(=O)OC(C)(C)C` | -2.621 | - |
| `Cc1nn(C)c(C)c1NC(=O)NCCc1c[nH]cn1` | - | 1.001 |
| `NC(=O)c1noc2c1CCCC2` | -1.738 | 8.362 |
| `CNC(=O)Nc1ccc(N2CCOCC2)nc1` | -293.5 | - |
| `CC(C)(C)C(=O)N1CCCN2CCCC2C1` (stereo not drawn) | -3.017 | - |
| `CC(C)N(C(=O)C1CCNCC1)C(C)C` | 0.3769 | - |
| `NCC1(CC(N)=O)CCCCC1` | - | 10.95 |
| `N#CC(c1cccc(Cl)c1)N1CCNCC1` (stereo not drawn) | - | -4.712 |
| `CC(=O)N(CCc1ccccc1)Cc1ccncc1` | - | -1.363 |
| `CNC(=O)C(C)(O)CN1Cc2ccccc2C1=O` (stereo not drawn) | - | -15.92 |
| `CCCNC(=O)c1nnn(-c2ccccc2OC)c1C` | 78.8 | 68.11 |
| `O=C(c1ccc(Cl)s1)N1CCN(c2nc[nH]n2)CC1` | - | 25.97 |
| `COCCN1CCN(C(=O)C(C)C)CC1` | 9.697 | - |
| `CN1CC(Nc2ccc(F)cc2C#N)CCC1=O` (stereo not drawn) | - | -21.2 |
| `CC(=O)NC(C)C(=O)Nc1ccccn1` (stereo not drawn) | - | 0.4798 |
| `Cc1cc(C(=O)NCCCN(C)CC(F)(F)F)no1` | 39.58 | 50.19 |
| `Cc1cccnc1NC(=O)CCc1cnn(C)c1` | -41.06 | - |
| `Cc1ccc(C(=O)Nc2cnn(C)c2)cn1` | - | 62.06 |
| `Cc1noc(Cl)c1CC(=O)N1CCN(CC(C)O)CC1` (stereo not drawn) | -2.216 | - |

The last 5 entries again:

| Compound | Mtb glucose medium | Mtb cholesterol medium |
|---|---|---|
| `CC(=O)NC(C)C(=O)Nc1ccccn1` (stereo not drawn) | - | 0.4798 |
| `Cc1cc(C(=O)NCCCN(C)CC(F)(F)F)no1` | 39.58 | 50.19 |
| `Cc1cccnc1NC(=O)CCc1cnn(C)c1` | -41.06 | - |
| `Cc1ccc(C(=O)Nc2cnn(C)c2)cn1` | - | 62.06 |
| `Cc1noc(Cl)c1CC(=O)N1CCN(CC(C)O)CC1` (stereo not drawn) | -2.216 | - |

Source: ChEMBL document CHEMBL3988442, “University of Dundee, Small-Polar-MMV Screening Library” (2021).